Measured values from several laboratories, pooled; numbers as filed in NIAID ChemDB.

Common to all: tests in culture; species: Herpes simplex virus 2; read-out: EC50

Blank or dashed fields: not listed here. Neighbouring rows are from separate reports. ECn is the concentration giving n% inhibition of infection, replication or growth.

smiles,read by,cells,strain,value
CCC[CH2][Sn]([Cl])([CH2]CCC)[CH2]CCC,plaque count,HFF,MS,<1 µg/mL
CC(=O)OC/C=C(C)/C=C/C=C(C)/C=C/C1=C(C)CCCC1(C)C,plaque count,-,-,36 µM
O=c1[nH]c(=O)n([C@H]2C[C@H](O)[C@@H](CO)O2)cc1CCCl,cytopathic effect,VERO,K979,>102 µM
CCn1cc(C(N)=O)c(=O)c2ccc(Cl)cc21,plaque count,VERO,-,>100 µg/mL
Nc1ncnc2c1ccn2[C@H]1C[C@@H](O)[C@@H](CO)O1,cytopathic effect,PRK,G,70 µg/mL
CCc1cn([C@@H]2O[C@H](CO)[C@@H](O)[C@@H]2F)c(=O)[nH]c1=O,plaque count,HEL,-,0.77 µM
Nc1ncnc2c1ccn2[C@@H]1O[C@H](CO)[C@H](O)[C@H]1O,cytopathic effect,PRK,G,0.1 µg/mL
CCCCCc1c2c(c3[nH]c4ccccc4c(=O)c3c1O)C=CC(C)(C)O2,plaque count,HEF,-,>20 µg/mL
Nc1ncnc2c1ccn2[C@@H]1O[C@H](CO)[C@@H](O)[C@H]1O,cytopathic effect,PRK,G,0.1 µg/mL
CCn1cc(C(=O)O)c(=O)c2ccc(-c3ccncc3)cc21,plaque count,VERO,-,>200 µg/mL
O[C@H]1[C@@H](O)COC(n2cnc3cc(Cl)c(Cl)cc32)[C@@H]1O,cytopathic effect,E6SM,G,>400 µg/mL
O=C(O)CP(=O)(O)O,cytopathic effect,HEL,ACV-resistant,11 µg/mL
C=Cc1cn([C@H]2C[C@H](O)[C@@H](CO)O2)c(=O)[nH]c1=O,plaque count,HEL,-,2.8 µM
CC(C)[Si]1(C(C)C)OC[C@H]2O[C@@H](n3cnc4cc(Cl)c(Cl)cc43)[C@@H](O)[C@H]2O[Si](C(C)C)(C(C)C)O1,cytopathic effect,E6SM,G,>100 µg/mL
COc1cc(OC)c2c(=O)c3ccc(OC)c(OC)c3n(C)c2c1,plaque count,HEF,-,>20 µg/mL
Nc1nc2c(ncn2COCCO)c(=O)[nH]1,cytopathic effect,VERO,TK-,>132 µM
Nc1nc(N)c2ncn(CCOCP(=O)(O)O)c2n1,cytopathic effect,HEL,ACV-resistant,2.5 µg/mL
O=c1[nH]c(=O)n([C@H]2C[C@H](O)[C@@H](CO)O2)c[c]1[Hg+].O[C@H](C[S-])[C@H](O)CS,virus yield,HELA TK-,HG-25,0.602 µg/mL
[CH3][Sn]([CH3])([Br])[Br].c1cnc2c(c1)ccc1cccnc12,plaque count,HFF,MS,72 µg/mL
Cn1c2c(O)cccc2c(=O)c2c(O)cc3c(c21)C=CC(C)(C)O3,plaque count,HEF,-,5 µg/mL
CC1=C(/C=C/C(C)=C/C=C/C(C)=C/C=O)C(C)(C)CCC1,plaque count,-,-,0.45 µM
O=c1[nH]c(=O)n([C@H]2C[C@H](O)[C@@H](CO)O2)cc1/C=C/Br,cytopathic effect,HEL,HS-47,>50 µg/mL
Cn1c2ccccc2c(=O)c2c(O)cc3c(c21)C=CC(C)(C)O3,plaque count,HEF,-,>20 µg/mL
Cc1cn([C@@H]2O[C@H](CO)[C@@H](O)[C@@H]2O)c(=O)[nH]c1=O,plaque count,HEL,-,1.74 µM
COc1cc(O)c2c(=O)c3cccc(O)c3n(C)c2c1OC,plaque count,HEF,Phosphonoacetic acid-resistant,0.63 µg/mL
O=c1[nH]c(=O)n([C@H]2C[C@H](O)[C@@H](CO)O2)c[c]1[Hg+].OCC[S-],virus yield,HELA TK-,HG-25,0.053 µg/mL
CCCCCCCCCC(=O)O[C@H]1C[C@H](n2cc(/C=C/Br)c(=O)[nH]c2=O)O[C@@H]1COP1(=O)OCc2cccc(C)c2O1,plaque count,VERO,G (TK+),>128 µg/mL
COC(=O)[C@H](C)NP(=O)(OC[C@H]1C/C1=C/n1cnc2c(=O)[nH]c(N)nc21)Oc1ccccc1,plaque count,VERO,-,>100 µM
CCOC(=O)CP(=O)(OC)OC[C@H]1O[C@@H](n2cc(I)c(=O)[nH]c2=O)C[C@@H]1O,cytopathic effect,VERO,K979,>57.9 µM
CC1(C)C=Cc2c(cc(O)c3c(=O)c4cccc(O)c4[nH]c23)O1,plaque count,HEF,-,0.73 µg/mL
O=c1[nH]c(=O)n([C@H]2C[C@H](O)[C@@H](CO)O2)c[c]1[Hg+].OCC(O)C[S-],virus yield,KB,HG-25,0.05 µg/mL
O[C@@H]1[C@@H](OCc2ccccc2)[C@@H](COCc2ccccc2)O[C@H]1n1cnc2cc(Cl)c(Cl)cc21,cytopathic effect,E6SM,G,>10 µg/mL
COC(=O)[C@H](C)NP(=O)(OCC1C/C1=C/n1cnc2c(N)ncnc21)Oc1ccccc1,plaque count,VERO,-,>1 µM
Cc1cc(C)c2c(c1)COP(=O)(OC[C@H]1O[C@@H](n3cc(/C=C/Br)c(=O)[nH]c3=O)C[C@@H]1O)O2,plaque count,VERO,G (TK+),>128 µg/mL
CCn1cc(C(=O)NCCN)c(=O)c2ccc(-c3ccncc3)cc21,plaque count,VERO,-,>100 µg/mL
[Cl][Sn]([Cl])([Cl])[c]1ccccc1,plaque count,HFF,MS,<1 µg/mL
O=C(O)P(=O)(O)O,cytopathic effect,VERO,TK-,>79.4 µM
NC(=O)c1cn([C@H]2C[C@@H](O)[C@@H](CO)O2)c2ncnc(N)c12,cytopathic effect,PRK,G,70 µg/mL
Nc1ncnc2c1ncn2C[C@H](O)CO,cytopathic effect,PRK,G,>100 µg/mL
O=c1[nH]c(=O)n([C@@H]2O[C@H](CO)[C@@H](O)[C@@H]2F)cc1/C=C/Br,plaque count,HEL,-,24 µM
CC(=O)O[C@H]1C[C@H](n2cc(/C=C/Br)c(=O)[nH]c2=O)O[C@@H]1COP1(=O)OCc2ccccc2O1,plaque count,VERO,G (TK+),>128 µg/mL
CCn1cc(C2=NCCN2)c(=O)c2ccc(-c3ccncc3)cc21,plaque count,VERO,-,>100 µg/mL
O=c1[nH]c(=O)n([C@H]2C[C@H](O)[C@@H](COP3(=O)OCc4c(Cl)cccc4O3)O2)cc1/C=C/Br,plaque count,VERO,G (TK+),>128 µg/mL
CCn1cc(C(N)=O)c(=O)c2ccc(F)cc21,plaque count,VERO,-,>50 µg/mL
NC(=O)c1cn([C@H]2C[C@H](O)[C@@H](CO)O2)c2ncnc(N)c12,cytopathic effect,PRK,G,1 µg/mL
COc1ccc2c(=O)c3c(OC)cc4c(c3n(C)c2c1OC)C=CC(C)(C)O4,plaque count,HEF,-,6.5 µg/mL
COC(=O)[C@H](C)NP(=O)(OC[C@H]1C/C1=C/n1cnc2c(N)nc(N)nc21)Oc1ccccc1,plaque count,VERO,-,15 µM
CCCCCc1c(O)c(CCCCC)c2c(c1O)c(=O)c1cccc(O)c1n2C,plaque count,HEF,-,8.4 µg/mL
CCc1cn([C@@H]2O[C@H](CO)[C@@H](O)[C@@H]2O)c(=O)[nH]c1=O,plaque count,HEL,-,>243 µM
CC1OP(=O)(OC[C@H]2O[C@@H](n3cc(/C=C/Br)c(=O)[nH]c3=O)C[C@@H]2O)Oc2cccc(Cl)c21,plaque count,VERO,G (TK+),>128 µg/mL
C[CH2][Sn]([Cl])([Cl])[CH2]C.c1cnc2c(c1)ccc1cccnc12,plaque count,HFF,MS,9 µg/mL
Nc1ccn(C[C@@H](CO)OCP(=O)(O)O)c(=O)n1,cytopathic effect,HEL,PCV-resistant/B,0.042 µg/mL
CC(C)(C)c1ccc(-n2cc(C(N)=O)c(=O)c3ccc(-c4ccncc4)cc32)cc1,plaque count,VERO,-,>25 µg/mL
COC(=O)[C@H](C)NP(=O)(OC[C@H]1C/C1=C/n1cnc2c(OC)nc(N)nc21)Oc1ccccc1,plaque count,HFF,-,0.88 µM
Cc1cccc2c1OP(=O)(OC[C@H]1O[C@@H](n3cc(/C=C/Br)c(=O)[nH]c3=O)C[C@@H]1OC(=O)[C@@H](C)N)OC2,plaque count,VERO,G (TK+),>128 µg/mL
O=C(O)CP(=O)(O)O,cytopathic effect,VERO,K979,>71.4 µM
Nc1ccn([C@@H]2C[C@H](CO)[C@@H](O)[C@H]2O)c(=O)n1,cytopathic effect,PRK,G,400 µg/mL
CC(C)(C)c1cccc2c1OP(=O)(OC[C@H]1O[C@@H](n3cc(/C=C/Br)c(=O)[nH]c3=O)C[C@@H]1O)OC2,plaque count,VERO,G (TK+),>128 µg/mL
CCn1cc(C(=O)N(C)O)c(=O)c2ccc(-c3ccncc3)cc21,plaque count,VERO,-,>50 µg/mL
CCCCCCCCCCCCCCCC(=O)OC/C=C(C)/C=C/C=C(C)/C=C/C1=C(C)CCCC1(C)C,plaque count,-,-,100 µM
NC(=O)c1cn([C@@H]2O[C@H](CO)[C@@H](O)[C@H]2O)c2ncnc(N)c12,cytopathic effect,PRK,G,0.07 µg/mL
Nc1nc(=O)n([C@@H]2O[C@H](CO)[C@@H](O)[C@@H]2F)cc1I,cytopathic effect,HEL,HS-47,0.11 µg/mL
Cc1cccc2c1OP(=O)(OC[C@H]1O[C@@H](n3cc(/C=C/Br)c(=O)[nH]c3=O)C[C@@H]1OC(=O)[C@H](N)CC(C)C)OC2,plaque count,VERO,G (TK+),>128 µg/mL
O=C(O)CP(=O)(O)O,cytopathic effect,HEL,HS-47,10.5 µg/mL
Nc1nc2c(ncn2CCC(CO)CO)c(=O)[nH]1,cytopathic effect,HEL,G,0.08 µg/mL
Clc1cc2nc[nH]c2cc1Cl,cytopathic effect,E6SM,G,10 µg/mL
O=c1[nH]c(=O)n([C@@H]2O[C@H](CO)[C@@H](O)[C@@H]2O)cc1/C=C/Cl,plaque count,HEL,-,513 µM
Cc1cccc2c1OP(=O)(OC[C@H]1O[C@@H](n3cc(/C=C/Br)c(=O)[nH]c3=O)C[C@@H]1OC(=O)[C@H]1CCCN1)OC2,plaque count,VERO,G (TK+),>128 µg/mL
O=C(O)P(=O)(O)O,cytopathic effect,HEL,HS-44,14 µg/mL
O[C@@H]1CC(n2cnc3cc(Cl)c(Cl)cc32)OC[C@@H]1O,cytopathic effect,E6SM,G,>100 µg/mL

Again, the opening 4 rows:

| smiles | read by | cells | strain | value |
|---|---|---|---|---|
| CCC[CH2][Sn]([Cl])([CH2]CCC)[CH2]CCC | plaque count | HFF | MS | <1 µg/mL |
| CC(=O)OC/C=C(C)/C=C/C=C(C)/C=C/C1=C(C)CCCC1(C)C | plaque count | - | - | 36 µM |
| O=c1[nH]c(=O)n([C@H]2C[C@H](O)[C@@H](CO)O2)cc1CCCl | cytopathic effect | VERO | K979 | >102 µM |
| CCn1cc(C(N)=O)c(=O)c2ccc(Cl)cc21 | plaque count | VERO | - | >100 µg/mL |